A mixed list of measured activities; the numbers were collected in NIAID ChemDB.

Rows are shuffled and stem from different studies.

SMILES,strain or isolate,cell line,tested at,agent,read by,protein,kind,read-out,result
C[C@H](Cc1ccc(O)c(O)c1)[C@@H](C)Cc1ccc(O)c(O)c1,CCC 124-2000,,,Candida parapsilosis,broth dilution,,culture,MIC100,250 µg/mL
O=C1NC(=O)C(Cc2ccccc2)N1,H37Rv,,,Mycobacterium tuberculosis,,,culture,MIC,>100 µg/mL
O=S(=O)([O-])c1cc(N=Nc2cc(S(=O)(=O)[O-])c3ccccc3c2O)ccc1/C=C/c1ccc(N=Nc2cc(S(=O)(=O)[O-])c3ccccc3c2O)cc1S(=O)(=O)[O-].[Na+].[Na+].[Na+].[Na+],H37Rv,,,Mycobacterium tuberculosis,BACTEC,,culture,MIC bound,>12.5 µg/mL
CC(=O)c1c(O)ccc2ccccc12,H37Rv,,,Mycobacterium tuberculosis,,,culture,MIC,>100 µg/mL
CCCCCCCC/C=C/CCCCCCCC(=O)Nc1nnc(NCCC2CCCN2C)s1,,,,Human cytomegalovirus,,Polymerase,target,IC50,<25 µM
CC(=O)C(N=Nc1ccc(S(=O)(=O)NC2ONC(C)C2C)cc1)C(=O)Nc1ccccc1C,H37Rv,,,Mycobacterium tuberculosis,BACTEC,,culture,MIC bound,>12.5 µg/mL
CCN(CCNS(C)(=O)=O)c1ccccc1,H37Rv,,,Mycobacterium tuberculosis,,,culture,MIC,>100 µg/mL
CCCCCCCC[N+]1([O-])CC[N+](C)([O-])CC1,H37Rv,,,Mycobacterium tuberculosis,BACTEC,,culture,MIC bound,>12.5 µg/mL
O=C(/C=C/c1cccc(Cl)c1)c1ccccc1O,H37Rv,,,Mycobacterium tuberculosis,,,culture,EC50,<12.5 µg/mL
CCN(CC)CC[n+]1ccc2c(C)c3[nH]c4ccc(O)cc4c3c(C)c2c1,H37Rv,,,Mycobacterium tuberculosis,resazurin,,culture,MIC bound,<6.25 µg/mL
O=C1c2ccccc2OC(c2cccc(Cl)c2)C1O,,,12.5 µg/mL,Mycobacterium tuberculosis,,,culture,inhibition,63%
O=c1[nH][nH]c(=O)c2c1ncn2Cc1ccccc1,H37Rv,,12.5 µg/mL,Mycobacterium tuberculosis,BACTEC,,culture,inhibition,0%
C[N+](C)(CCCOc1ccccc1)CCCOc1ccccc1.[Br-],H37Rv,,,Mycobacterium tuberculosis,,,culture,MIC,>100 µg/mL
c1ccc(N2CCN(c3cncc(-c4cccc5ccccc45)n3)CC2)cc1,,,10 µM,Cytomegalovirus,,UL97 kinase,target,inhibition,>15%
CCCCCCCC/C=C/CCCCCCCC(=O)Nc1nnc(NCCSc2ccccc2)s1,,,,Human cytomegalovirus,,Polymerase,target,IC50,<25 µM
CCN1C(=O)C(N2CCCCC2)S/C1=C\C(=O)O,H37Rv,,,Mycobacterium tuberculosis,BACTEC,,culture,MIC,≥12.8 µg/mL
Fc1ccccc1N1CCN(c2cncc(-c3ccc(C(F)(F)F)cc3)n2)CC1,,,,Cytomegalovirus,,UL97 kinase,target,IC50,<10 µM
O=S(=O)(NCCO)c1ccc(Br)cc1,H37Rv,,,Mycobacterium tuberculosis,,,culture,MIC,25 µg/mL
C#CC[C@@H](C(=O)N[C@H](/C=C/C(=O)OCC)C[C@@H]1CCNC1=O)n1cccc(NC(=O)c2cc(C)on2)c1=O,Serotype 39,H1-HELA,,Rhinovirus,cytopathic effect / XTT,,culture,EC50,0.102 µM
Cc1cc(Br)ccc1NC1=CC(=O)C(=O)c2ccccc21,H37Rv,,,Mycobacterium tuberculosis,resazurin,,culture,MIC bound,<6.25 µg/mL
CCO/N=C/c1ccc(OCCC2CCN(c3ccc(C)nn3)CC2)cc1,CH82 (ICAM-1 receptor group 56),KB,,Rhinovirus,neutral red,,culture,EC50,0.002 µM
Cc1ccc2c(c1)C1(C)C=C(CN3CCN(C)CC3)C(=O)CC1O2,H37Rv,,,Mycobacterium tuberculosis,BACTEC,,culture,MIC bound,>12.5 µg/mL
CC(=O)Nc1cc(Cl)ccc1[N+](=O)[O-],H37Rv,,,Mycobacterium tuberculosis,,,culture,MIC,>100 µg/mL
CCOC(=O)[C@H]1O[C@@H]([C@@]2(C)O[C@]3(O[C@]4(C=C[C@H]3O)O[C@H]([C@@H](C)C(=O)[C@@H](C)[C@@H](O)[C@H](C)C[C@H](C)c3c(Cl)cc(C)c(O)c3C(=O)O)[C@@H](C)C[C@H]4C)[C@H](C)[C@H]2OC)C[C@H]1O,H37Rv,,,Mycobacterium tuberculosis,BACTEC,,culture,MIC,6.25 µg/mL
CC1SC(=Nc2ccc(S(N)(=O)=O)cc2)NC1=O,H37Rv,,,Mycobacterium tuberculosis,,,culture,MIC,100 µg/mL
CCC(C)C1NC(=O)C(CC(C)C)NC(=O)C(C(C)C)NC(=O)C2CSSCC(NC1=O)C(=O)N2,H37Rv,,,Mycobacterium tuberculosis,BACTEC,,culture,MIC bound,>12.5 µg/mL
COc1ccc(/C=C/C(=O)c2ccc(F)cc2O)cc1,H37Rv,,,Mycobacterium tuberculosis,,,culture,EC50,<12.5 µg/mL
Cl.NC(CCc1ccccc1)c1ccccc1,H37Rv,,,Mycobacterium tuberculosis,,,culture,MIC,62.5 µg/mL
COc1cccc(-c2cncc(N3CCN(c4ccc(OC)c(OC)c4)CC3)n2)c1,,,,Cytomegalovirus,,UL97 kinase,target,IC50,<10 µM
CC(C)(C)C(CCC(=O)O)CC(=O)O,H37Rv,,,Mycobacterium tuberculosis,,,culture,MIC,>100 µg/mL
CN1C2CCC1CC(O)C2,H37Rv,,12.5 µg/mL,Mycobacterium tuberculosis,BACTEC,,culture,inhibition,-3%
Cc1ccc(-c2nnc(-c3ccccc3)n2-c2cc(C(=O)O)ccc2C)cc1,H37Rv,,,Mycobacterium tuberculosis,,,culture,MIC,>100 µg/mL
COc1cc(Cl)c(/C=C2\N=C(c3ccccc3)OC2=O)cc1OC,H37Rv,,,Mycobacterium tuberculosis,BACTEC,,culture,MIC bound,>12.5 µg/mL
Cc1ccc(-c2cncc(N3CCN(c4ccccc4F)CC3)n2)cc1,,,10 µM,Cytomegalovirus,,UL97 kinase,target,inhibition,>15%
O=C(Nc1nnc(NCc2cccc3ccccc23)s1)c1ccc(S(=O)(=O)F)cc1,,,,Human cytomegalovirus,,Polymerase,target,IC50,>25 µM
NNC(=O)c1ccc(-c2ccc[nH]2)[nH]1,H37Rv,,,Mycobacterium tuberculosis,BACTEC,,culture,MIC bound,>12.5 µg/mL
Nc1ncccc1/C=C/C(=O)c1ccc2c(c1)-c1ccccc1C2,H37Rv,,12.5 µg/mL,Mycobacterium tuberculosis,,,culture,inhibition,53%
N#Cc1ccc(C(=O)Nc2nnc(NCc3ccc(F)cc3)s2)cc1,,,,Human cytomegalovirus,,Polymerase,target,IC50,<25 µM
COc1cccc(-c2cncc(N3CCN(c4cccc(Cl)c4)CC3)n2)c1OC,,,,Cytomegalovirus,,UL97 kinase,target,IC50,<100 µM
C=C1C(=O)C23OC2C1CCC(=O)C1(C)CCC(OC(C)=O)C(C)(C)C1CC3=O,H37Rv,,,Mycobacterium tuberculosis,BACTEC,,culture,MIC bound,≤12.5 µg/mL
OC1c2ccccc2Oc2ccccc21,H37Rv,,,Mycobacterium tuberculosis,,,culture,MIC,25 µg/mL
CC12CC(=O)C3C(CCC4CC(OS(=O)(=O)[O-])CCC43C)C1CC1OC(=O)C=C12.[Na+],H37Rv,,,Mycobacterium tuberculosis,BACTEC,,culture,MIC,≥12.8 µg/mL
O=[N+]([O-])c1ccc2c(c1)oc1ccccc12,H37Rv,,,Mycobacterium tuberculosis,,,culture,MIC,>100 µg/mL
CC(=O)N1CCCCCC1=O,H37Rv,,,Mycobacterium tuberculosis,BACTEC,,culture,MIC bound,>12.5 µg/mL
CCN(CC)CCCCNc1cc(N)nc(NCCCCN(CC)CC)n1.Cl,H37Rv,,,Mycobacterium tuberculosis,,,culture,MIC,>100 µg/mL
O=C(Nc1nnc(NCCCCc2ccccc2)s1)c1cc2ccccc2s1,,,,Human cytomegalovirus,,Polymerase,target,IC50,<25 µM
Br.O=C(c1ccccc1)C(Br)CN1CCCCC1,H37Rv,,,Mycobacterium tuberculosis,,,culture,MIC,>100 µg/mL
NC(N)=NCCC[C@H](NC(=O)OCCCCCCn1ccc(N)nc1=O)C(=O)O,H37Rv,,6.25 µg/mL,Mycobacterium tuberculosis,resazurin,,culture,inhibition,54%
COc1ccc(-c2cncc(N3CCN(c4ccccc4OC)CC3)n2)cc1OC,,,,Cytomegalovirus,,UL97 kinase,target,IC50,<10 µM
O=C1CSC(=Nc2ccccc2)N1c1ncccn1,H37Rv,,,Mycobacterium tuberculosis,BACTEC,,culture,MIC bound,>12.5 µg/mL
Oc1c(Br)c(-c2ccccc2)c(O)c(Br)c1-c1ccccc1,H37Rv,,,Mycobacterium tuberculosis,,,culture,MIC,>100 µg/mL
Fc1ccc(N2CCCCC2)c(NC(=S)c2ccncc2)c1,,,10 µM,,kinase activity,CK2,host protein,inhibition,2%
O=C(/C=C/c1cccc(O)c1)c1ccccc1O,H37Rv,,,Mycobacterium tuberculosis,,,culture,EC50,>12.5 µg/mL
O=C(O)CC1C=Cc2cc(S(=O)(=O)O)cc3cccc1c23,H37Rv,,,Mycobacterium tuberculosis,,,culture,MIC,>100 µg/mL
COc1ccc(C2CC(=O)c3ccc(F)cc3O2)cc1,H37Rv,,,Mycobacterium tuberculosis,,,culture,EC50,>12.5 µg/mL
Nc1ccc(C(=O)Nc2ccccc2)c(O)c1,H37Rv,,,Mycobacterium tuberculosis,,,culture,MIC,25 µg/mL
Nc1ccccc1/C=C/C(=O)c1cc(Br)ccc1O,,,12.5 µg/mL,Mycobacterium tuberculosis,,,culture,inhibition,8%
CCC(=O)c1ccc(N)cc1,H37Rv,,,Mycobacterium tuberculosis,,,culture,MIC,>100 µg/mL
Cc1ccc(Nc2ccc(Nc3ccc(C)cc3)c3c2C(=O)c2cc(Cl)c(Cl)cc2C3=O)cc1,H37Rv,,,Mycobacterium tuberculosis,BACTEC,,culture,MIC bound,>12.5 µg/mL
CCCN(CCC)C(=O)c1cnc2ccccc2c1.Cl,H37Rv,,,Mycobacterium tuberculosis,,,culture,MIC,>100 µg/mL
N#Cc1ccc(C(=O)Nc2nnc(NCCCCc3ccccc3)s2)cc1,,,,Human cytomegalovirus,,Polymerase,target,IC50,<25 µM
CC1=NN(C(=O)NS(=O)(=O)c2ccc(CCNC(=O)c3nccnc3N)cc2)CC1,H37Rv,,,Mycobacterium tuberculosis,BACTEC,,culture,MIC,≥12.5 µg/mL
O=C(O)c1cc([N+](=O)[O-])c(O)c([N+](=O)[O-])c1,H37Rv,,,Mycobacterium tuberculosis,,,culture,MIC,>100 µg/mL

The first 8 rows once more:

SMILES | strain or isolate | cell line | tested at | agent | read by | protein | kind | read-out | result
C[C@H](Cc1ccc(O)c(O)c1)[C@@H](C)Cc1ccc(O)c(O)c1 | CCC 124-2000 |  |  | Candida parapsilosis | broth dilution |  | culture | MIC100 | 250 µg/mL
O=C1NC(=O)C(Cc2ccccc2)N1 | H37Rv |  |  | Mycobacterium tuberculosis |  |  | culture | MIC | >100 µg/mL
O=S(=O)([O-])c1cc(N=Nc2cc(S(=O)(=O)[O-])c3ccccc3c2O)ccc1/C=C/c1ccc(N=Nc2cc(S(=O)(=O)[O-])c3ccccc3c2O)cc1S(=O)(=O)[O-].[Na+].[Na+].[Na+].[Na+] | H37Rv |  |  | Mycobacterium tuberculosis | BACTEC |  | culture | MIC bound | >12.5 µg/mL
CC(=O)c1c(O)ccc2ccccc12 | H37Rv |  |  | Mycobacterium tuberculosis |  |  | culture | MIC | >100 µg/mL
CCCCCCCC/C=C/CCCCCCCC(=O)Nc1nnc(NCCC2CCCN2C)s1 |  |  |  | Human cytomegalovirus |  | Polymerase | target | IC50 | <25 µM
CC(=O)C(N=Nc1ccc(S(=O)(=O)NC2ONC(C)C2C)cc1)C(=O)Nc1ccccc1C | H37Rv |  |  | Mycobacterium tuberculosis | BACTEC |  | culture | MIC bound | >12.5 µg/mL
CCN(CCNS(C)(=O)=O)c1ccccc1 | H37Rv |  |  | Mycobacterium tuberculosis |  |  | culture | MIC | >100 µg/mL
CCCCCCCC[N+]1([O-])CC[N+](C)([O-])CC1 | H37Rv |  |  | Mycobacterium tuberculosis | BACTEC |  | culture | MIC bound | >12.5 µg/mL

Inhibition is in % at the dose shown (toxicity tests: loss of growth or viability). MIC bound comes from a single tested concentration. ICn is the concentration giving n% inhibition. ECn is the concentration giving n% inhibition of infection, replication or growth. Blank or dashed fields: not listed here. MIC50, MIC90 and the like: level of inhibition, or share of isolates inhibited.